Pooled drug test results. Numbers come from NIAID ChemDB, via PubChem.

Shared fields: whole-cell or culture tests; organism: Hepatitis C virus; measure: EC50

Lines come from different laboratories, so protocols vary.

smiles | strain or isolate | cell line | read by | changes | result
CCOc1nc(N)nc2ccc(-c3cccc(NS(=O)(=O)c4ccc(C)cc4)c3)nc12 |  | Huh7 | replicon |  | 0.3–1 µM
C[C@@H](c1ncc(-c2ccc(-c3ncc(-c4cnc([C@H]5CCCN5C(=O)[C@@H](c5ccccc5)N5CCCCC5)[nH]4)cn3)cc2)[nH]1)N(C)C(=O)[C@@H](c1ccccc1)N1CCCCC1 | 1b |  |  |  | 0.00001–0.000999 µM
CCCCCCCCOc1ccc(N(C(=O)COC(C)=O)c2nc(-c3ccc(F)c(F)c3)cs2)cc1 |  |  |  |  | <1 µM
NC(=S)Nc1cccc(OCCCCCOc2ccnc3ccccc23)c1 |  | Ava5-EG(delta4AB)SEAP | reporter gene / fluorescence |  | 0.001–1 µM
CCN(CC)[C@@H](C(=O)N1CCC[C@@H]1c1ncc(-c2ccc(-c3ncc(-c4cnc([C@H]5CCCN5C(=O)[C@H](C)NC(=O)OC)[nH]4)cn3)cc2)[nH]1)c1ccccc1 | 1b |  |  |  | 0.00001–0.000999 µM
CCCCCOc1ccc(N(C(=O)c2cc(C)on2)c2nc(-c3ccc(Cl)s3)cs2)cc1C(F)(F)F |  |  |  |  | <1 µM
NC(=S)Nc1cccc(OCCCc2ccccc2)c1 |  | Ava5-EG(delta4AB)SEAP | reporter gene / fluorescence |  | 0.001–1 µM
CN(C)[C@@H](C(=O)N1CCC[C@@H]1c1ncc(-c2cnc(-c3cnc(-c4cnc([C@H]5CCCN5C(=O)[C@@H](c5ccccc5)N(C)C)[nH]4)cn3)cn2)[nH]1)c1ccccc1 | 1b |  |  |  | 0.001–0.099 µM
CCc1nc(C(=O)N2c3cccc(O)c3NC3=C(C(=O)CC(C)(C)C3)C2c2ccc(OCc3ccccc3)cc2F)c(C)o1 | 1b |  | luciferase / reporter gene / replicon |  | 29.81 µM
O=C(N[C@@H](C(=O)N1CCC[C@H]1c1ncc(-c2ccc(-c3ccc(-c4cnc([C@@H]5CCCN5C(=O)[C@H](NC(=O)C5CC5)c5ccccc5)s4)cc3)cc2)s1)c1ccccc1)C1CC1 | genotype 1b | Huh7.5 | luciferase / reporter gene | P58L | 0.000564 µM
O=C(O)c1sc(-c2ccc(-c3cc4ncccn4n3)cc2)cc1N(C(=O)c1ccc(Cl)cc1F)C1CCOC1 | 1b |  | luciferase / replicon |  | 0.01–0.05 µM
CC(C)(C)OC(=O)N1CCC(NS(=O)(=O)c2cc(-c3ccc4nc(NCc5ccc(S(N)(=O)=O)cc5)nc(NCC(F)(F)F)c4n3)ccc2F)CC1 |  |  | replicon |  | <0.1 µM
CCCCCOc1ccc(N(C(=O)CC(=O)OC)c2nc(-c3ccc(F)cc3)cs2)cc1C(F)(F)F |  |  |  |  | <1 µM
Fc1ccc(CNc2nc(NCCN3CCOCC3)c3nc(-c4ccc(F)cc4)ccc3n2)cc1 |  |  | replicon |  | <0.1 µM
NC(=S)Nc1ccccc1OCCCCCc1ccccc1 |  | Ava5-EG(delta4AB)SEAP | reporter gene / fluorescence |  | 0.001–1 µM
CCOc1nc(NCc2ccc(S(N)(=O)=O)cc2)nc2ccc(-c3ccc(NC(=O)C(N)CO)cc3)nc12 |  |  | replicon |  | <0.1 µM
CC(C)COc1ccc(N(C(N)=O)c2nc(-c3cccnc3)cs2)cc1C(F)(F)F |  |  |  |  | <1 µM
NS(=O)(=O)c1ccc(CNc2nc(NCC(F)(F)F)c3nc(-c4ccc(F)c(S(=O)(=O)NC5CCNCC5)c4)ccc3n2)cc1 |  |  | replicon |  | <0.1 µM
CC1(C)CC(=O)C2=C(C1)Nc1c(O)cccc1N(C(=O)CCC(N)=O)C2c1ccc(OCc2ccccc2)cc1Cl | 1b |  | luciferase / reporter gene / replicon |  | 6.78 µM
CS(=O)(=O)CCNc1nc(NCc2ccc(S(N)(=O)=O)cc2)nc2ccc(-c3ccc(C(=O)NC4CC4)cc3)nc12 |  |  | replicon |  | 0.1–0.25 µM
CCOC(=O)c1ccc(OCCCCCOc2cccc(NC(N)=S)c2)cc1 |  | Ava5-EG(delta4AB)SEAP | reporter gene / fluorescence |  | 0.001–1 µM
CC1(C)CC(=O)C2=C(C1)Nc1c(O)cccc1N[C@H]2c1ccc(OCc2ccccc2)cc1Cl | 1b |  | luciferase / reporter gene / replicon |  | 5.98 µM
CCOc1nc(NCc2ccc(F)cc2)nc2ccc(-c3ccc(NC(=O)NCCN4CCCC4)cc3)nc12 |  |  | replicon |  | <0.1 µM
O=C(O)c1sc(-c2ccc(-c3cc4ncccn4n3)cc2)cc1N(C(=O)c1ccc(Cl)cc1F)C1CCOCC1 | 1b |  | luciferase / replicon |  | 0.01–0.05 µM
NC(=S)Nc1cccc(OCCCCCOc2ccccc2-c2ccc(C(F)(F)F)cc2)c1 |  | Ava5-EG(delta4AB)SEAP | reporter gene / fluorescence |  | 0.001–1 µM
CCOc1nc(NC2(c3ccc(F)cc3)CC2)nc2ccc(-c3ccc(C(=O)NC(C)(C)CN4CCCC4)cc3)nc12 |  |  | replicon |  | <0.1 µM
CC(C)N(C(=O)c1ccc(Cl)cc1Cl)c1cc(-c2ccc(-c3cn4ccccc4n3)cc2)sc1C(=O)O | 1b |  | luciferase / replicon |  | 0.05–0.1 µM
NC(=S)Nc1cccc(OCCCCCOc2nccc3ccccc23)c1 |  | Ava5-EG(delta4AB)SEAP | reporter gene / fluorescence |  | 0.001–1 µM
C/C=N/N(c1ccc(OCCCCCCCC)cc1)c1nc(-c2cccnc2)cs1 |  |  |  |  | <1 µM
COC(=O)N[C@H](C(=O)N1CCC[C@H]1c1ncc(-c2ccc(-c3ccc(-c4cnc([C@@H]5CCCN5C(=O)[C@@H](NC(=O)OC)C(C)C)[nH]4)cc3)cc2)[nH]1)C(C)C | 1b | ET | luciferase | D320E | 0.0000038 µM
COc1ccc2ccccc2c1C1C2=C(CC(C)(C)CC2=O)Nc2c(O)cccc2N1C(=O)C(C)C | 1b |  | luciferase / reporter gene / replicon |  | 6.49 µM
COC(=O)N[C@@H](C(=O)N1CCC[C@H]1c1ncc(-c2ccc(-c3ccc(-c4cnc([C@@H]5CCCN5C(=O)[C@H]5CCCO5)[nH]4)cc3C)cc2)[nH]1)c1ccccc1 | 1b |  |  |  | 0.00001–0.000999 µM
CC(C)N(C(=O)c1ccc(Cl)cc1Cl)c1cc(-c2ccc(-c3cc4nccc(N)n4n3)cc2)sc1C(=O)O | 1a |  | luciferase / replicon |  | <0.005 µM
CC1(C)CC(=O)C2=C(C1)Nc1c(O)cccc1N(C(=O)NCC(=O)NS(C)(=O)=O)C2c1ccc(OCc2ccccc2)cc1Cl | 1b |  | luciferase / reporter gene / replicon |  | >32 µM
CCCCCCCCOc1ccc(N(C(=O)CCC(=O)O)c2nc(-c3cccnc3)cs2)cc1C(F)(F)F |  |  |  |  | <1 µM
CN(C)CCCN(C)C(=O)CCC(=O)N1c2cccc(O)c2NC2=C(C(=O)CC(C)(C)C2)C1c1ccc(OCc2ccccc2)cc1Cl | 1b |  | luciferase / reporter gene / replicon |  | 67.1 µM
COc1c(-c2ccc3cc(NS(C)(=O)=O)ccc3c2)cc(-n2ccc(=O)[nH]c2=O)cc1C(C)(C)C | genotype 1b Con1 | Huh7 | luciferase | S368T | 0.082 µM
CC1(C)CC(=O)C2=C(C1)Nc1c(O)cccc1N(C(=O)CCC(=O)N1CCC(N3CCCC3)CC1)C2c1ccc(OCc2ccccc2)cc1Cl | 1b |  | luciferase / reporter gene / replicon |  | 44.65 µM
CCCCCOc1ccc(N(C(=O)C2CCCCC2)c2nc(-c3ccccn3)cs2)cc1C(F)(F)F |  |  |  |  | <1 µM
COCC(C)N(C(=O)c1ccc(Cl)cc1F)c1cc(-c2ccc(-c3cc4ncccn4n3)cc2)sc1C(=O)O | 1b |  | luciferase / replicon |  | 0.005–0.01 µM
COC(=O)N[C@@H](C)C(=O)N1CCC[C@@H]1c1ncc(-c2ccc(-c3ncc(-c4cnc([C@H]5CCCN5C(=O)[C@H](C)NC(=O)OC)[nH]4)cn3)cc2)[nH]1 | 1b |  |  |  | 0.00001–0.000999 µM
CC(C)N(C(=O)c1ccc(Cl)cc1F)c1cc(-c2ccccc2)sc1C(=O)O | 1a |  | replicon / ELISA |  | 1–5 µM
CCOc1nc(N)nc2ccc(-c3ccc(C(=O)NC(C)C)cc3)nc12 |  | Huh7 | replicon |  | >1 µM
COC(=O)N[C@@H](C(=O)N(C)[C@@H](C)c1ncc(-c2ccc(-c3ncc(-c4cnc([C@H]5CCCN5C(=O)[C@H](NC(=O)OC)c5ccccc5)[nH]4)cn3)cc2)[nH]1)c1ccccc1 | 1b |  |  |  | 0.00001–0.000999 µM

A second listing of 5 rows from above:

smiles	strain or isolate	cell line	read by	changes	result
Fc1ccc(CNc2nc(NCCN3CCOCC3)c3nc(-c4ccc(F)cc4)ccc3n2)cc1			replicon		<0.1 µM
CN(C)CCCN(C)C(=O)CCC(=O)N1c2cccc(O)c2NC2=C(C(=O)CC(C)(C)C2)C1c1ccc(OCc2ccccc2)cc1Cl	1b		luciferase / reporter gene / replicon		67.1 µM
COCC(C)N(C(=O)c1ccc(Cl)cc1F)c1cc(-c2ccc(-c3cc4ncccn4n3)cc2)sc1C(=O)O	1b		luciferase / replicon		0.005–0.01 µM
COC(=O)N[C@@H](C)C(=O)N1CCC[C@@H]1c1ncc(-c2ccc(-c3ncc(-c4cnc([C@H]5CCCN5C(=O)[C@H](C)NC(=O)OC)[nH]4)cn3)cc2)[nH]1	1b				0.00001–0.000999 µM
CC(C)N(C(=O)c1ccc(Cl)cc1Cl)c1cc(-c2ccc(-c3cc4nccc(N)n4n3)cc2)sc1C(=O)O	1a		luciferase / replicon		<0.005 µM

a–b is a range or a potency band. An empty or dashed field is not shown. ECn: concentration that inhibits the pathogen or its effect by n%.